A mixed list of measured activities; the numbers were collected in NIAID ChemDB.

Shared fields: tests in culture; species: Mycobacterium tuberculosis

MIC bound: limit read from a one-dose screen. Inhibition is in % at the dose shown (toxicity tests: loss of growth or viability). ECn: concentration that inhibits the pathogen or its effect by n%. MIC50, MIC90 and the like: level of inhibition, or share of isolates inhibited. Rows are shuffled and stem from different studies. Fold resistance: result on the changed form divided by that on wild type. An empty or dashed field is not shown. a–b is a range or a potency band.

smiles,method,cells,changes,read-out,strain or isolate,dose,value
COc1ccccc1/C=C(\C#N)n1nnc2ccccc21,-,-,-,MIC90,ATCC 27294,-,80.2 µM
CO[C@H]1/C=C/O[C@@]2(C)Oc3c(C)c(O)c4c(=O)c(c5oc6cc(N7CCN(CC(C)C)CC7)cc(=O)c6nc5c4c3=C2O)NC(=O)/C(C)=C\C=C\[C@H](C)[C@H](O)[C@@H](C)[C@@H](O)[C@@H](C)[C@H](OC(C)=O)[C@@H]1C,-,-,-,MIC,Erdman,-,0.002 µg/mL
CN(C)c1cccc2c(Cl)c(Cl)c3cccc(N(C)C)c3c12,BACTEC,-,-,MIC bound,H37Rv,-,<6.25 µg/mL
CCc1nc2ccccc2n1CCCCOc1ccc(C)c(C)c1,turbidity / fluorescence,-,WT,MIC90,H37Rv,-,5 µM
O=C1NC(=S)NC1/C=C/c1ccccc1,-,-,-,EC50,H37Rv,-,<6.25 µg/mL
CCCCN1CCN(c2ccc3nc(-c4ccc5nc(-c6ccc(OC)c(OC)c6)[nH]c5c4)[nH]c3c2)CC1,broth dilution / turbidity,-,-,MIC90,H37Ra,-,7.3 µg/mL
O=C1NC(=Nc2ccccc2Cl)N/C1=C\c1c(Cl)cccc1Cl,-,-,-,inhibition,H37Rv,12.5 µg/mL,0%
C/C(=N\NC(=O)Cc1nn(Cc2ccc(Br)cc2F)c(=O)c2ccccc12)c1ccc(F)cc1,-,-,-,MIC,Multidrug-resistant (MDR),-,1.57 µM
CCOC(=O)c1cc(C(=O)c2ccccc2)n2c1ccc1c3ncccc3ccc12,reporter gene / fluorescence,-,-,EC90,H37Rv,-,>200 µM
CCOC(=O)c1ccc2cccnc2c1O,-,-,-,MIC50,M 607,-,25 µg/mL
CC[C@@H](CO)NCCN[C@@H](CC)CO,-,-,-,MIC,CSU22,-,8 µg/mL
Cn1nnc(-c2ccc(-c3ccc(N4C[C@H](CO)OC4=O)cc3F)cn2)n1,-,-,-,MIC90,61 isolates (isoniazid rifampin-susceptible),-,0.5 µg/mL
Cc1cc(S(=O)(=O)Nc2nc(N)nc(N3N=CCC3C)n2)c(S)cc1Cl,BACTEC,-,-,MIC bound,H37Rv,-,>12.5 µg/mL
Oc1cccc2cccnc12,-,-,-,MIC50,M 607,-,5–10 µg/mL
NCCCN1c2ccccc2Sc2ccccc21,resazurin,-,-,MIC,MDR-699,-,4 µg/mL
O=C(O)/C=C/c1ccc(O)cc1,-,-,-,MIC,H37Rv,-,>128 µg/mL
Cc1nc2cccc([N+](=O)[O-])c2n1CCCN(C)C,resazurin,-,-,inhibition,H37Rv,6.25 µg/mL,-6%
CC(C)=CCc1cc(/C=C/C(=O)c2cc(CC=C(C)C)c(O)cc2O)ccc1O,resazurin,-,-,MIC,MTCS2,-,19.53 µg/mL
N#C/C(=C\c1ccc(C#N)cc1)n1nnc2ccccc21,-,-,-,MIC90,ATCC 27294,-,>100 µM
COC(=O)C1=CO[C@@H](C)[C@@H]2CN3CCc4c([nH]c5ccccc45)[C@@H]3C[C@H]12,BACTEC,-,-,MIC,H37Rv,-,≥12.8 µg/mL
COC(=O)c1c(C(=O)OC)c2ccc3c4ncccc4ccc3n2c1C(=O)c1ccc([N+](=O)[O-])cc1,reporter gene / fluorescence,-,-,MIC,H37Rv,-,>100 µM
CC[C@H](CC[C@@H](C)[C@H]1CC[C@H]2[C@@H]3C(=O)C=C4C[C@@H](O)CC[C@]4(C)[C@H]3CC[C@]12C)C(C)C,-,-,-,MIC,H37Rv,-,1.98 µg/mL
Cc1ccc(C(=O)[C@@H]2[C@H]3C(=O)N(c4ccccc4)C(=O)[C@H]3[C@H]3C=Cc4c(ccc5cccnc45)N32)cc1,reporter gene / fluorescence,-,-,MIC,H37Rv,-,>200 µM
COc1ccc2cc([N+](=O)[O-])c3ccc(=O)oc3c2c1,resazurin,-,-,MIC,H37Rv,-,25 µg/mL
O=c1c(O[C@@H]2C[C@H](CO)[C@@H](O)[C@H](O)[C@H]2O)c(-c2ccc(O)c(O)c2)oc2cc(O)cc(O)c12,-,-,-,MIC,H37Rv,-,>128 µg/mL
CC(C)=CCc1cc(/C=C/C(=O)c2ccc(O)c(CC=C(C)C)c2O)ccc1O,resazurin,-,-,MIC,MTCS2,-,9.76 µg/mL
C[C@@H]1O[C@@H](OC[C@H]2O[C@@H](Oc3c(-c4ccc(O)c(O)c4)oc4cc(O)cc(O)c4c3=O)[C@H](O)[C@@H](O)[C@@H]2O)[C@H](O)[C@H](O)[C@H]1O,-,-,-,MIC,H37Rv,-,>128 µg/mL
CCc1nc2ccc(C)cc2n1CCCCSc1ccc(Cl)cc1,turbidity / fluorescence,-,QcrB M342T,fold resistance,H37Rv,-,>6.3
COC(=O)C(Cc1ccccc1)NC(=O)N1CCCN(C(=O)NC(Cc2ccccc2)C(=O)OC)CCCN(C(=O)NC(Cc2ccccc2)C(=O)OC)CCC1,resazurin,-,-,inhibition,H37Rv,6.25 µg/mL,-9%
O=C(Cc1nn(Cc2ccc(Br)cc2F)c(=O)c2ccccc12)N/N=C/c1cccc(Br)c1,-,-,-,MIC,Multidrug-resistant (MDR),-,0.72 µM
O=Cc1ccc(O)c2ncccc12,-,-,-,MIC50,M 607,-,>25 µg/mL
Cc1ccc(N2C(=O)CSC2=S)cc1Br,BACTEC,-,-,inhibition,H37Rv,12.5 µg/mL,2%
CO[C@H]1/C=C/O[C@@]2(C)Oc3c(C)c(O)c4c(O)c(c5c(c4c3C2=O)NC2(CCN(CC(C)C)CC2)N=5)=NC(=O)/C(C)=C\C=C\[C@H](C)[C@H](O)[C@@H](C)[C@@H](O)[C@@H](C)[C@H](OC(C)=O)[C@@H]1C,-,-,-,MIC,CSU11,-,≤0.125 µg/mL
O=C1CN(c2cccc(C(F)(F)F)c2)C(=O)CN1/N=C/c1ccco1,BACTEC,-,-,inhibition,H37Rv,12.5 µg/mL,0%
CCc1nc2ccc(C)cc2n1CCCCOc1ccccc1,turbidity / fluorescence,-,QcrB M342T,fold resistance,H37Rv,-,56
O=C1NC(=NCc2ccc(F)cc2)N/C1=C\c1ccccc1Cl,-,-,-,MIC,H37Rv,-,>6.25 µg/mL
CCc1nc2ccccc2n1CCCCOc1ccc(C)c(Cl)c1,turbidity / fluorescence,-,Rv1339 V90M,MIC90,H37Rv,-,2.1 µM
NC[C@H]1OB2OCCOC3C=CC(c4ccccc4)=C1C23,resazurin / fluorescence,-,-,EC50,H37Rv,-,8.75 µM
CO[C@H]1/C=C/O[C@@]2(C)Oc3c(C)c(O)c4c(O)c(c(/C=N/N5CCN(C)CC5)c(O)c4c3C2=O)NC(=O)/C(C)=C\C=C\[C@H](C)[C@H](O)[C@@H](C)[C@@H](O)[C@@H](C)[C@H](OC(C)=O)[C@@H]1C,reporter gene / fluorescence,-,-,EC90,H37Rv,-,0.0061 µM
Cc1ccc(/C=C/C(=O)/C=C/c2ccc(C)o2)o1,BACTEC,-,-,MIC bound,H37Rv,-,≤12.5 µg/mL
C[C@H]1COc2c(N3CCN(C)CC3)c(F)cc3c(=O)c(C(=O)O)cn1c23,-,-,-,MIC,CSU27,-,≤0.125 µg/mL
O=S(=O)(Nc1cc(Cl)c(Cl)cc1N=Cc1cc(Cl)ccc1O)c1ccccc1,BACTEC,-,-,MIC bound,H37Rv,-,>6.25 µg/mL
O=C1NC(=Nc2ccc(Cl)cc2Cl)N/C1=C\c1ccccc1Cl,-,-,-,inhibition,H37Rv,12.5 µg/mL,37%
NCC(=O)N[C@@H](CO)C(=O)O,BACTEC,-,-,MIC bound,H37Rv,-,>12.8 µg/mL
CC1CN(c2c(F)cc3c(=O)c(C(=O)O)cn(C4CC4)c3c2F)CC(C)N1,-,-,-,MIC,CSU18,-,≤0.125 µg/mL
NNC(=O)c1ccncc1,-,-,-,MIC,MTB24 (S),-,0.12 µg/mL
CCc1nc2ccccc2n1CCCCOc1cccc(C)c1,turbidity / fluorescence,-,QcrB T313I,MIC90,H37Rv,-,61 µM
NNC(=O)c1ccncc1,-,-,-,MIC99,HN335,-,0.03 µg/mL
N#C/C(=C\c1ccc(F)cc1F)n1nnc2ccccc21,-,-,-,MIC50,ATCC 27294,-,>100 µM
O=C1NC(=S)N/C1=C/c1cccc(OCc2ccc(Cl)cc2Cl)c1,-,-,-,EC50,H37Rv,-,<6.25 µg/mL
COc1ccc(C2C(=O)c3ccc(OC)cc3OC2c2ccccc2)cc1,BACTEC,-,-,MIC,H37Rv,-,≥12.5 µg/mL
COc1ccc(C(=O)[C@@H]2C[C@H](C#N)[C@@H]3C=Cc4c(ccc5cccnc45)N23)cc1,reporter gene / fluorescence,-,-,EC90,H37Rv,-,>200 µM
CCCCCCCCc1ccc(Oc2ccccc2)c(O)c1,-,-,-,MIC99,W210,-,2.6 µg/mL
O=C(O)C(=O)O.OC(CNCCc1ccccc1)CN1c2ccccc2Sc2ccccc21,resazurin,-,-,MIC,XDR-164,-,32 µg/mL
COC(=O)C(=O)C(/C=N/C(=S)N=Nc1c(O)[nH]c2ccccc12)=C(\O)c1c(C)[nH]c2ccccc12,BACTEC,-,-,MIC bound,H37Rv,-,>12.5 µg/mL
Cc1ccc(-c2n[nH]c(=O)n2-n2c(C)ccc2C)cc1,-,-,-,MIC,V.C,-,10.33 µg/mL
Clc1ccc(OCCCCn2ccnc2)cc1,turbidity / fluorescence,-,-,MIC99,H37Rv,-,>20 µM
O=C(c1ccc([N+](=O)[O-])cc1)c1cnc2nc(-c3ccccc3)c(-c3ccccc3)nn12,BACTEC,-,-,inhibition,H37Rv,12.5 µg/mL,12%
CCCOc1ccc(/C=C2/NC(=S)NC2=O)cc1,-,-,-,EC50,H37Rv,-,<6.25 µg/mL
NNC(=O)c1ccncc1,BACTEC,-,-,MIC,CDC1551,-,0.023 µg/mL
COc1cccc(/C=C(\C#N)n2nnc3ccccc32)c1,-,-,-,MIC50,ATCC 27294,-,52.7 µM
CO[C@H]1/C=C/O[C@@]2(C)Oc3c(C)c(O)c4c(O)c(c(/C=N/N5CCN(C)CC5)c(O)c4c3C2=O)NC(=O)/C(C)=C\C=C\[C@H](C)[C@H](O)[C@@H](C)[C@@H](O)[C@@H](C)[C@H](OC(C)=O)[C@@H]1C,-,-,-,MIC,Multidrug-resistant (MDR),-,3.79 µM
NC(=O)c1cnccn1,-,-,-,MIC,Isolate 98-30,-,900 µg/mL
N#C/C(=C\c1ccc(F)c(F)c1)n1nnc2ccccc21,-,-,-,MIC50,ATCC 27294,-,54.6 µM
CCOC(=O)c1ccc(N2C(=S)N(C(=O)c3ccccc3)C(=Nc3ccccc3)C2=Nc2ccccc2)cc1,BACTEC,-,-,inhibition,H37Rv,12.5 µg/mL,0%
O=C(O)CCCc1ccc(O)c2ncccc12,-,-,-,MIC50,M 607,-,1 µg/mL
CC(C)=CCOc1c2ccoc2cc2oc(=O)ccc12,resazurin,-,Isoniazid- and rifampicin-resistant,MIC100,H37Rv clinical isolate CRY3,-,200 µg/mL
CCOC(=O)c1cc(C(=O)c2ccc(Cl)cc2)n2c1ccc1c3ncccc3ccc12,reporter gene / fluorescence,-,-,MIC,H37Rv,-,>100 µM
CN(C)c1ccc(/C=N/NC(=O)Cc2nn(Cc3ccc(Br)cc3F)c(=O)c3ccccc23)cc1,-,-,-,MIC,Multidrug-resistant (MDR),-,6.16 µM
Cc1cc(=O)c2cc(N)ccc2[nH]1,BACTEC,-,-,MIC bound,H37Rv,-,>12.5 µg/mL
O=C1NC(Nc2ccc(Cl)cc2)=N/C1=C\c1ccccc1Cl,-,-,-,inhibition,H37Rv,12.5 µg/mL,99%
Cc1ccnc2c(O)cccc12,-,-,-,MIC50,M 607,-,5–10 µg/mL
CSC(=S)NN,BACTEC,-,-,MIC,H37Rv,-,16 µg/mL
O=C1NC(=S)N/C1=C/c1cccc(OCc2ccccc2)c1,-,-,-,EC50,H37Rv,-,<6.25 µg/mL
CC(=O)N1N=C(c2ccc(OCC(O)CN3CCN(CC(O)COc4ccc(C5=NN(C(C)=O)C(c6ccccc6)C5)cc4)CC3)cc2)CC1c1ccccc1,BACTEC,-,-,MIC,H37Rv,-,≥12.8 µg/mL
CCOC(=O)CCCOc1ccc(/C=C2/NC(=S)NC2=O)cc1,-,-,-,EC50,H37Rv,-,<6.25 µg/mL
O=C1C=CC(=Nc2ccc(O)c(Cl)c2)C=C1,BACTEC,-,-,inhibition,H37Rv,12.5 µg/mL,1%
NC[C@@H]1O[C@H](O[C@H]2[C@@H](O)[C@H](O[C@@H]3[C@@H](O)[C@H](N)C[C@H](N)[C@H]3O[C@H]3O[C@H](CO)[C@@H](O)[C@H](O)[C@H]3N)O[C@@H]2CO)[C@H](N)[C@@H](O)[C@@H]1O,-,-,-,MIC,MTB21 (S),-,<0.09 µg/mL
CO[C@H]1/C=C/O[C@@]2(C)Oc3c(C)c(O)c4c(O)c(c5c(c4c3C2=O)NC2(CCN(Cc3ccccc3)CC2)N=5)=NC(=O)/C(C)=C\C=C\[C@H](C)[C@H](O)[C@@H](C)[C@@H](O)[C@@H](C)[C@H](OC(C)=O)[C@@H]1C,-,VERO,-,MIC,H37Rv,-,0.0125 µg/mL
COc1cccc2c1cc1c3c(cc4c(c32)OCO4)C(=O)N1,resazurin,-,-,MIC,H37RvRr,-,25 µg/mL
O=C1C=C(Nc2ccc(Br)cc2)c2ccccc2C1=O,resazurin,-,-,MIC bound,H37Rv,-,<6.25 µg/mL
O=C1NC(Nc2cccc(Cl)c2)=N/C1=C\c1ccccc1Cl,-,-,-,MIC,H37Rv,-,>12.5 µg/mL